Consider 15 compounds from patent US10195189B2, “2-phenethenyltetrahydro isoquinolines useful as anti-HIV compounds” (priority 2014, dated 2019).

The data set relates to HIV-1 NL4-3 viral clone expressing Renilla luciferase. The format is cell-based. The note with it: ratio of CC50 over EC50. The gist of the method:
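MT-2 cells (2×10^4/well) were infected at MOI 0.027 with Renilla-luciferase HIV-1 NL4-3 alongside 3-fold compound dilutions for 96 h. Spread was read by EnduRen luminescence and supernatant infectivity on TZM-bl (48 h, MUG fluorescence). Mock-infected cytotoxicity used AlamarBlue. % inhibition versus solvent was fitted by 4-parameter logistic (0–100% constrained) for EC50/CC50.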
`COc1cc2c(cc1OCc1ccccc1)CCNC2/C=C/c1ccc(N2CCN(C)CC2)cc1` (stereo not drawn) [DW, 6-(Benzyloxy)-7-methoxy-1-[(E)-2-[4-(4-methylpiperazin-1-yl)phenyl]ethenyl]-1,2,3,4-tetrahydroisoquinoline]: the SI is 1.9.
With `COc1cc2c(cc1OCc1ccccc1)CCNC2/C=C/c1ccccc1N1CCCCC1` (stereo not drawn) [DX, 6-(Benzyloxy)-7-methoxy-1-[(E)-2-[2-(piperidin-1-yl)phenyl]ethenyl]-1,2,3,4-tetrahydroisoquinoline], the SI amounted to 1.3.
The result for `COc1cc2c(cc1OCc1ccccc1)CCNC2/C=C/c1scnc1C` (stereo not drawn) [DY, 5-[(E)-2-(6-Benzyloxy-7-methoxy-1,2,3,4-tetrahydroisoquinolin-1-yl)vinyl]-4-methyl-thiazole] reads 3.9; that for `COc1cc2c(cc1OCc1ccccc1)CCNC2/C=C/c1ccc(-c2ccccn2)cc1` (stereo not drawn) [DZ, 6-Benzyloxy-7-methoxy-1-[(E)-2-[4-(2-pyridyl)phenyl]vinyl]-1,2,3,4-tetrahydroisoquinoline], 8.9.
As to `COc1cc2c(cc1OCc1ccccc1)CCNC2/C=C/c1ccc(N2CCCCC2)cc1` (stereo not drawn) [EA, 6-Benzyloxy-7-methoxy-1-[(E)-2-[4-(1-piperidyl)phenyl]vinyl]-1,2,3,4-tetrahydroisoquinoline], the SI amounted to 2.3.
The result for `COc1cc2occc2cc1/C=C/C1NCCc2cc(OCc3ccccc3)c(OC)cc21` (stereo not drawn) [EB, 6-Benzyloxy-7-methoxy-1-[(E)-2-(6-methoxybenzofuran-5-yl)vinyl]-1,2,3,4-tetrahydroisoquinoline] reads 20; that for `COc1cc2c(cc1OCc1ccccc1)CCNC2/C=C/c1cccc(-c2ncco2)c1` (stereo not drawn) [EC, 2-[3-[(E)-2-(6-Benzyloxy-7-methoxy-1,2,3,4-tetrahydroisoquinolin-1-yl)vinyl]phenyl]oxazole], 8; that for `COc1cc2c(cc1OCc1ccccc1)CCNC2/C=C/c1ccc(-c2ncco2)cc1` (stereo not drawn) [ED, 2-[4-[(E)-2-(6-Benzyloxy-7-methoxy-1,2,3,4-tetrahydroisoquinolin-1-yl)vinyl]phenyl]oxazole], 13.
Take `CCOC(=O)c1coc(-c2ccc(/C=C/C3NCCc4cc(OCc5ccccc5)c(OC)cc43)cc2)n1` (stereo not drawn) [EE, Ethyl 2-[4-[(E)-2-(6-benzyloxy-7-methoxy-1,2,3,4-tetrahydroisoquinolin-1-yl)vinyl]phenyl]oxazole-4-carboxylate]: the SI is recorded as 2.8.
For `CCOC(=O)c1coc(-c2cccc(/C=C/C3NCCc4cc(OCc5ccccc5)c(OC)cc43)c2)n1` (stereo not drawn) [EF, Ethyl 2-[3-[(E)-2-(6-benzyloxy-7-methoxy-1,2,3,4-tetrahydroisoquinolin-1-yl)vinyl]phenyl]oxazole-4-carboxylate], the SI turned out to be 6.
With `COc1cc2c(cc1OCc1ccccc1)CCNC2/C=C/c1ccc2c(c1)OCC2` (stereo not drawn) [EG, 6-Benzyloxy-1-[(E)-2-(2,3-dihydrobenzofuran-6-yl)vinyl]-7-methoxy-1,2,3,4-tetrahydroisoquinoline], the SI is reported as 21.4.
For `COc1cc(OC)c(/C=C/C2NCCc3cc(OCc4ccccc4)c(OC)cc32)cc1C` (stereo not drawn) [EH, 6-Benzyloxy-1-[(E)-2-(2,4-dimethoxy-5-methyl-phenyl)vinyl]-7-methoxy-1,2,3,4-tetrahydroisoquinolin], the SI was 54.5.
The result for `COc1ccc(/C=C/C2NCCc3cc(OCc4ccccc4)c(OC)cc32)cc1C` (stereo not drawn) [EI, 6-Benzyloxy-7-methoxy-1-[(E)-2-(4-methoxy-3-methyl-phenyl)vinyl]-1,2,3,4-tetrahydroisoquinoline] reads 35.3; that for `COc1cccc(/C=C/C2NCCc3cc(OCc4ccccc4)c(OC)cc32)c1` (stereo not drawn) [EJ, 6-Benzyloxy-7-methoxy-1-[(E)-2-(3-methoxyphenyl)vinyl]-1,2,3,4-tetrahydroisoquinoline], 3.3.
As for `COc1ccc(OC)c(/C=C/C2NCCc3cc(OCc4ccccc4)c(OC)cc32)c1` (stereo not drawn) [EK, 6-Benzyloxy-1-[(E)-2-(2,5-dimethoxyphenyl)vinyl]-7-methoxy-1,2,3,4-tetrahydroisoquinoline], the SI was determined as 9.5.
